These results are taken from PubChem BioAssay AID1085 (Emory University Molecular Libraries Screening Center, 2008).

The chains behind the UniProt entries cited, without tags or fusion partners. Where a name states a change or a piece, a line headed by the entry shows the natural chain unless it says otherwise.
UniProt Q1HVG2: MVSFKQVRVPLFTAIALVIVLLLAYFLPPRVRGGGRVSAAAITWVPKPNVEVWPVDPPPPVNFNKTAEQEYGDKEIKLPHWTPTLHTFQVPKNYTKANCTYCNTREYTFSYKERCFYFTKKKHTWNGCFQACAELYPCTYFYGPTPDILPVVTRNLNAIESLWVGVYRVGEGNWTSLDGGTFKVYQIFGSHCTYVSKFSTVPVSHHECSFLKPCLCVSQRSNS

Values joined by “and” are separate entries in the source; they are usually repeats but may differ in a detail not shown here. Identical values can stand only once. This is a selection; strong and weak results do not stand in their true shares. Active and inactive are the calls of the source. Rule as the data show it: active = inhibition above about 50%; inactive = the rest.

This assay addresses Glycoprotein 42 (Epstein-Barr virus (strain AG876)) (UniProt Q1HVG2). The experiment in a line: Epstein-Barr virus gp42 inhibitors, primary screen, biochemical, uHTS, fluorescence polarization (AID 1085). Particulars: Fluorescence polarization binding assay, mP read-out; stronger effect = higher value; tested at 21.74 µM. For orientation: Polarisation of emitted light reports the rotation of a fluorescent probe.
With `O=C(/C=C/c1ccccc1)OC1CN2CCC1CC2` (stereo not drawn), the inhibition is inactive: -17.2%.

As for `CN(C)C1(CNC(=O)c2ccc(S(C)(=O)=O)cc2)CCCCC1`, the inhibition is inactive: 30.7%. Then `Cc1nn(-c2ccccc2)c2c1P(=O)(N1CCOCC1)N(C)C(c1ccccc1)=N2` (stereo not drawn), with inactive: 13.1%.

Consider `CC1CCC(C(C)C)C(OP(=O)(Nc2ccccn2)c2ccccc2)C1` (stereo not drawn), for which the inhibition is inactive: -17%. As for `Cc1ccc(OCC(=O)OC2CN3CCC2CC3)cc1` (stereo not drawn), the figure is inactive: -7.82%; as for `O=[As](O)(c1cccs1)c1cccs1`, inactive: 3.28%; as for `O=P1(Nc2ccc(Br)cn2)COc2ccccc2OC1`, inactive: -28.7%. Then `Nc1cccc([As](=O)(O)c2ccccc2)c1`, with inactive: -14.9%. Then `O=P1(Nc2ncccn2)COc2ccccc2OC1`, with inactive: -18.5%; and `Clc1n[nH]nc1-c1nn[nH][15n]1`, with inactive: -3.74%. For the molecule `CC(C)(C)C(=O)NC(Sc1ncccn1)C(Cl)(Cl)Cl` (stereo not drawn), the inhibition is inactive: -2.98%. As for `CCOP(=O)(Nc1ccc(C)cn1)OCC`, the figure is inactive: -16.2%; as for `O=P1(Nc2ccccn2)COc2ccccc2OC1`, inactive: 9.78%; as for `O=[As](O)(c1ccccc1Br)c1ccccc1Br`, inactive: -1.57%. In the case of `CC(C)/C=N\N=C(\N)N[N+](=O)[O-]`, the inhibition was inactive: 1.11%. As for `CN(C(=O)Cc1ccc(Cl)c(Cl)c1)[C@@H]1CCCC[C@H]1N1CCCC1`, the figure is inactive: -15.8%; as for `Cc1cccc(OCC(=O)OC2CN3CCC2CC3)c1` (stereo not drawn), inactive: -20.3%; as for `O=[As](O)(c1cccc(O)c1)c1cccc(O)c1`, inactive: 0.88%. For the molecule `O=[As](O)(O)c1cccnc1`, the inhibition was inactive: -3.62%. As for `COc1cc(C(=O)NCC2(N3CCOCC3)CCCCC2)cc(Cl)c1OC(C)C`, the figure is inactive: -9.88%; as for `O=C(OC1CN2CCC1CC2)c1ccc(Cl)cc1` (stereo not drawn), inactive: -7.33%. As for `COc1cc(C2NCCC3(OCCO3)C2(C)C)cc(OC)c1OC` (stereo not drawn), the figure is inactive: -21.2%; as for `CCOP(=O)(Nc1cccc2ccccc12)OCC`, inactive: 6.57%; as for `CCCOP(=S)(Nc1nc(N)cc(=O)[nH]1)OCCC`, inactive: -5.47%. On to `Cc1ccc(NCCc2c([N+](=O)[O-])cc([N+](=O)[O-])cc2[N+](=O)[O-])cc1`, for which the inhibition was inactive: -4.07%. Turning to `Nc1cccc2c([As](=O)(O)O)cccc12`, the inhibition is inactive: 19.3%. With `Nc1ccccc1[As](=O)(O)c1ccccc1`, the inhibition is inactive: -10.2%. Then `O=C(O)COc1ccc([As](=O)(O)O)cc1[N+](=O)[O-]`, with inactive: -6.41%; and `CS(=O)(=O)c1cc([N+](=O)[O-])c2no[n+]([O-])c2c1`, with inactive: -44.9%. In the case of `CCOP1(=S)c2c(C)nn(CCC#N)c2N=C(c2ccccc2F)N1C` (stereo not drawn), the inhibition was inactive: -5.44%. As for `O=P(Nc1nccs1)(Oc1ccccc1)Oc1ccccc1`, the figure is inactive: -5.42%; as for `O=P(Nc1nccs1)(c1ccccc1)c1nc2ccccc2s1` (stereo not drawn), inactive: -15.7%; as for `O=[N+]([O-])c1ccc2c(c1)nnn2O`, inactive: 0.79%. Then `CN(C(=O)Cc1ccccc1)[C@@H]1CC[C@]2(CCCO2)C[C@H]1N1CCCC1`, with inactive: -11.8%. As for `CCOP1(=S)c2c(C)nn(CCC#N)c2N=C(c2ccc(F)cc2)N1C` (stereo not drawn), the figure is inactive: -6.82%. For `NC(=O)Nc1ccc([As](=O)(O)O)cc1`, the inhibition was inactive: -10.4%. For `Cc1ccc2nc3c(c(C)c2c1)CC(C(Cl)Cl)S3` (stereo not drawn), the inhibition is inactive: 2.78%. Then `Cc1ccc(OP(=O)(Nc2ccc([N+](=O)[O-])cn2)Oc2ccc(C)cc2)cc1`, with inactive: -1.4%. Then `C[As](=O)(O)c1cccc(C(=O)O)c1`, with inactive: -17.6%; and `O=[As](O)(c1ccc(O)cc1)c1ccccc1O`, with inactive: -9.23%; and `CC(C)NC(=O)NP(=O)(Oc1ccccc1)Oc1ccccc1`, with inactive: -2.7%. Then `CCN(CC)C(=S)SC(NC=O)C(Cl)(Cl)Cl` (stereo not drawn), with inactive: -14.9%. As for `O=[N+]([O-])c1cc([N+](=O)[O-])c(-c2ccn[nH]2)s1`, the inhibition was inactive: -10.6%. Then `CC(C)c1ccc(OP(=O)(Nc2ccccn2)Oc2ccccc2F)cc1` (stereo not drawn), with inactive: 1.8%.

Consider `ClCCSc1nnc(-c2cccnc2)o1`, for which the inhibition was inactive: -8.86%. For the molecule `COc1ccc2nc(NP(=O)(c3ccccc3)c3ccccc3)sc2c1`, the inhibition was inactive: -7.3%. As for `COc1cc(I)ccc1[As](=O)(O)O`, the figure is inactive: -7.91%. As for `O=C(OC1CN2CCC1CC2)C12CC3CC(CC(C3)C1)C2` (stereo not drawn), the figure is inactive: -15.4%; as for `Cc1cc(=O)[nH]c(N[N+](=O)[O-])n1`, inactive: -5.85%.

As to `Cc1c2c(nc3ccccc13)SC(C(Cl)Cl)C2` (stereo not drawn), the inhibition is inactive: -6.08%. As for `COc1ccc(N/C(=N/P(=O)(N2CCOCC2)N2CCOCC2)N2CCOCC2)cc1`, the inhibition was inactive: -14.6%.

Consider `O=C(COc1ccccc1)OC1CN2CCC1CC2` (stereo not drawn), for which the inhibition was inactive: -3.19%. As for `COP1(=S)c2c(C)nn(CCC#N)c2N=C(c2ccc(F)cc2)N1C` (stereo not drawn), the figure is inactive: -16.4%; as for `CCC(C)N(CC(C)C)C(=S)SC(NC(C)=O)C(Cl)(Cl)Cl` (stereo not drawn), inactive: -22.1%. As for `CCOC(=O)c1ccc(NC(=O)C(C)(CCl)SC)cc1` (stereo not drawn), the figure is inactive: -19.6%; as for `Cc1cc(SC(NC(=O)c2ccccc2)C(Cl)(Cl)Cl)nc(C(C)C)n1` (stereo not drawn), inactive: 3.66%; as for `CCOC(=O)Nc1ccc([As](=O)(O)O)c(O)c1`, inactive: -5.48%. In the case of `O=[N+]([O-])c1ccc(Nc2ccc(Oc3ccc([N+](=O)[O-])cc3[N+](=O)[O-])cc2)c([N+](=O)[O-])c1`, the inhibition is inactive: -9.48%. On to `O=P(Nc1ccccn1)(c1cccc2ccccc12)c1cccc2ccccc12`, for which the inhibition is inactive: -1.67%.

Turning to `Cc1cc(SC(NC=O)C(Cl)(Cl)Cl)ncn1` (stereo not drawn), the inhibition is inactive: -1.89%. Then `CCOC(=O)Nc1cccc([As](=O)(O)O)c1`, with inactive: -0.8%.

Turning to `O=C(Nc1cc([As](=O)(O)O)ccc1O)c1ccccc1`, the inhibition is inactive: 0.04%. `O=[N+]([O-])c1cccc(NC2=NCC(CBr)S2)c1` (stereo not drawn): the inhibition is inactive: -3.55%. Then `O=C(O)CNc1ccc([As](=O)(O)O)cc1`, with inactive: -2.05%. As for `CC(C)(C)C(=O)NC(Sc1ccncn1)C(Cl)(Cl)Cl` (stereo not drawn), the figure is inactive: -6.84%.

For the molecule `O=[N+]([O-])c1ncn(CCn2ncnc2[N+](=O)[O-])n1`, the inhibition is inactive: -6.96%.

In the case of `O=[N+]([O-])c1cccc2n[nH]nc12`, the inhibition is inactive: -4.45%. As for `CC(=O)N1C2C3N(C(C)=O)C1C1N(C(C)=O)C(C(N1C(C)=O)N3C(C)=O)N2C(C)=O`, the figure is inactive: -12.1%.

With `Cc1ccc(NP(=O)(Oc2ccccc2)Oc2ccccc2)nc1`, the inhibition was inactive: -9.3%. Then `CCc1nc2c(n1)c1c(non1O)c1c2no[n+]1[O-]`, with inactive: -24.2%; and `O=[N+]([O-])c1cc([N+](=O)[O-])c(CCNc2ccccc2)c([N+](=O)[O-])c1`, with inactive: 0.25%; and `COc1ccc(C2=NCC(CBr)S2)cc1` (stereo not drawn), with inactive: -25.4%.

For the molecule `CC(C)=N/N=C(\N)N[N+](=O)[O-]`, the inhibition is inactive: -16.8%. As for `CN(C)C(=O)OCCc1n(C)cc[n+]1C`, the figure is inactive: 6.39%; as for `CC1CCN(C(=O)Oc2c(Cl)cc(Cl)c3cccnc23)CC1`, inactive: -11.1%; as for `Nc1ccc([As](=O)(O)c2ccc(N)cc2)cc1`, inactive: -19.9%. As for `C[N+]1=C2C=CC=CC=C2SC12C([N+](=O)[O-])=CC([N+](=O)[O-])=C[C-]2[N+](=O)[O-]` (stereo not drawn), the figure is inactive: -31.8%; as for `CCN(/C(=N/P(=O)(N1CCOCC1)N1CCOCC1)N1CCOCC1)c1ccc(OC)cc1`, inactive: 3.33%. Turning to `COc1ccccc1OP(=O)(Nc1ccc(C)cn1)Oc1ccccc1OC`, the inhibition was inactive: -20.4%.

Regarding `Cc1ccc(OP(=O)(Nc2nccs2)Oc2ccc(C)cc2)cc1`, the inhibition was inactive: -9.58%. As for `CN1CCCC(OC(=O)C(c2ccccc2)c2ccccc2)C1` (stereo not drawn), the inhibition is inactive: -1.39%.

On to `Clc1ccc(Cl)c(NC2=NCC(CBr)S2)c1` (stereo not drawn), for which the inhibition is inactive: -28.2%.

Turning to `NC(=O)c1cc([N+](=O)[O-])cc([N+](=O)[O-])c1N`, the inhibition was inactive: 3.13%. Take `Cc1ccc(N/C(=N/P(=O)(N2CCOCC2)N2CCOCC2)N2CCOCC2)cc1`: the inhibition was inactive: -12%. Then `Nc1cc(N)c2nonc2c1[N+](=O)[O-]`, with inactive: -22.3%; and `CC(C)CC(=O)NC(Sc1ccc(Cl)cc1)C(Cl)(Cl)Cl` (stereo not drawn), with inactive: -10%; and `Oc1ccccc1CNc1ccccn1`, with inactive: -19.2%. As for `O=C(NC(Sc1ccncn1)C(Cl)(Cl)Cl)c1ccccc1` (stereo not drawn), the figure is inactive: -6.47%.

Consider `Cc1c2non([O-])c-2c(C)[n+](=O)[n+]1[O-]`, for which the inhibition is inactive: -18.8%. Then `Cc1cc(SC(NC(=O)c2ccc(F)cc2)C(Cl)(Cl)Cl)ncn1` (stereo not drawn), with inactive: -16.6%; and `CCOP(=O)(Nc1ccccc1)OCC`, with inactive: -16.6% and inactive: -11.8%.

Regarding `Cc1ccc(NP(=O)(Oc2ccccc2F)Oc2ccccc2F)nc1`, the inhibition was inactive: 3.77%. As for `CC(=O)Nc1ccc([As](=O)(O)O)cc1`, the figure is inactive: -6.64%; as for `O=C(O)c1ccccc1[As](=O)(O)O`, inactive: -11.7%; as for `O=P(Nc1nc2ccc(Cl)cc2s1)(c1ccccc1)c1ccccc1`, inactive: -2.63%. As for `CCN(N=Nc1nonc1N)c1nonc1N`, the figure is inactive: -6.09%.

For the molecule `Nc1cccc2ccc([As](=O)(O)O)cc12`, the inhibition was inactive: 0.97%. As for `CCNC(=S)/N=C(\N)N[N+](=O)[O-]`, the figure is inactive: 1.65%. As for `O=C(NC1CCS(=O)(=O)C1)NP(=S)(Oc1ccccc1)Oc1ccccc1` (stereo not drawn), the figure is inactive: 7.98%; as for `c1ccc(-c2nn[nH]n2)c(-c2nn[nH]n2)c1`, inactive: -7.16%; as for `Cc1ccc(NP(=O)(Oc2cccc(C)c2)Oc2cccc(C)c2)nc1`, inactive: -23.2%. Then `CCOC(=O)NC(Sc1ccccc1)C(Cl)(Cl)Cl` (stereo not drawn), with inactive: 4.38%. As to `Cc1ccccc1OP(=O)(Nc1ccccn1)Oc1ccccc1C`, the inhibition was inactive: -15.2%.

One may read the inhibition as the change of the read-out against control, counted positive when it falls.
